PubChem BioAssay AID1259414 | Drosophila RNAi Screening Center – 2018

- Assay: 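Fly genes that alter Wolbachia amount inside host cells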 (primary screen)
- Cell system: Drosophila JW18 cells infected with Wolbachia
- Knock-down reagent: long dsRNA against Drosophila genes, 0.25 µg dsRNA per well of a 384-well plate
- Timing: 5 days
- Treatment: cells persistently infected with Wolbachia before knock-down; no added drug
- Read-out: 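Imaged fluorescence in situ signal for Wolbachia 23S rRNA per DAPI-counted host cell, given as a robust z-score within each plate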
- Direction: Wolbachia per cell robust z: higher = more Wolbachia per host cell than the plate typical
- Hit rule: 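Active if absolute robust z reaches 1.5 in two or more of three replicates, leaving out multi- or no-target dsRNAs, genes unexpressed in JW18 and A1 wells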
In all, the deposit lists about 24,000 reagents; shown is a random part of those that have a named target and a result. In the full data, about 1,210 (5%) were called active. 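Inactive calls also include excluded dsRNAs with several or no targets, genes unexpressed in JW18, and well A1, regardless of score.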 Names joined by + are all predicted targets of the reagent.

no.	target gene	PubChem SID	Wolbachia per cell robust z, rep 1	Wolbachia per cell robust z, rep 2	Wolbachia per cell robust z, rep 3	outcome
1	v	SID104200175	-0.67	0.803	-0.45	inactive
2	v	SID104216682	-1.32	0.515	-1.76	inactive
3	CG33303	SID104182640	0.0979	-4.5	-1.26	inactive
4	AANATL2	SID104183019	-0.138	-3.69	0.597	inactive
5	AANATL2	SID104205029	-0.71	-0.809	-0.829	inactive
6	Gasz	SID104186621	0.14	0.31	-0.974	inactive
7	Gasz	SID104206377	-2.05	-0.643	-1.71	active
8	CG13083	SID104181979	0.521	1.36	1.74	inactive
9	CG13083	SID104206968	-0.22	0.0865	-0.296	inactive
10	Cyp4d1	SID104197486	-0.146	0.943	-1.08	inactive
11	Cyp4d1	SID104198248	-0.197	0.668	0.00337	inactive
12	Cyp4d1	SID104202956	0.886	0.431	0.818	inactive
13	zfh2	SID104196970	0.462	-1.19	-8.68	inactive
14	zfh2	SID104206554	-2.27	-0.627	-2.62	active
15	CG7465	SID104188384	-1.01	0.258	-0.531	inactive
16	CG7465	SID104201823	1.12	0.698	0.852	inactive
17	CG7465	SID104202953	-0.688	-13.7	-0.997	inactive
18	snoRNA:Me28S-C3420b + RpS11	SID104187188	-2.36	-4.5	0.025	inactive
19	CG13707	SID104188108	0.897	0.119	-3.25	inactive
20	CG13198	SID104186115	-1.6	0.465	-1.5	inactive
21	CG4554	SID104184265	-2.2	1.47	0.744	inactive
22	CG4554	SID104206425	-0.339	0.483	0.63	inactive
23	mi	SID104184290	0.893	1.65	0.0502	inactive
24	mi	SID104207969	-0.164	0.524	-4.45	inactive
25	Drep4	SID104183200	0.207	-1.7	-0.343	inactive
26	Upf1	SID104199459	-0.359	-0.524	-0.245	inactive
27	CG5676	SID104182667	0.257	-0.134	-0.408	inactive
28	Cad74A	SID104190428	0.347	-2.08	-0.103	inactive
